This series deals with EcoHIV-infected mice. Description: Radial arm water maze, DON prophylaxis in EcoHIV-infected mice. Conditions: DON 1 mg/kg, i.p., q.o.d.

For `[N-]=[N+]=CC(=O)CC[C@H](N)C(=O)O` [DON, 6-diazo-5-oxo-L-norleucine], the “overt signs of toxicity (diarrhea, weight loss)” value is given as “no mice exhibited overt signs of toxicity”.
